Results of unrelated studies side by side (data: NIAID ChemDB).

Shared fields: growth or infection tests; species: Aspergillus fumigatus; measure: EC50

An empty or dashed field is not shown. ECn is the concentration giving n% inhibition of infection, replication or growth. Conditions beyond the fields shown may differ between rows.

compound	setting	read by	strain	result
COc1cccc(C(=O)Oc2c(OC)cc3ccnc4c3c2N(C)C=C4)c1	-	-	-	>15 µg/mL
ON=Cc1ccc[n+](Cc2csc3ccccc23)c1.[Cl-]	-	broth dilution	-	>20 µg/mL
CN(c1ccc(Cl)cc1)c1cc2ccccc2[n+](C)c1.[I-]	-	resazurin	ATCC 90906	>20 µg/mL
S=C(S)n1nnc2ccccc21	48 h	broth dilution / absorbance	-	>50 µg/mL
O/N=C/c1cccc[n+]1Cc1ccc(Br)s1.[Cl-]	-	broth dilution	-	>20 µg/mL
CCCCCCCC/C=C/CCCCCCCCC(=O)Oc1c(OC)cc2ccnc3c2c1N(C)C=C3	-	-	-	>15 µg/mL
C[n+]1c2ccc(Cl)cc2cc2[nH]c3ccccc3c21	-	resazurin	ATCC 90906	>10 µg/mL
C[n+]1c2cccc(O)c2cc2sc3ccccc3c21	-	resazurin	ATCC 90906	>20 µg/mL
Cc1onc(-c2ccc(Cl)cc2Cl)c1C=O	-	-	Clinical isolates	18.78 µg/mL
COc1cc2ccnc3c2c(c1OC(=O)c1ccccc1C)N(C)C=C3	-	-	-	>15 µg/mL
Cc1onc(-c2ccc(F)cc2)c1C=O	-	-	Clinical isolates	16.4 µg/mL
C[n+]1cccc(N(CCCCCC2CCCCC2)c2ccccc2C#N)c1.[I-]	-	resazurin	ATCC 90906	>20 µg/mL
CCc1ccc(C(=O)Oc2c(OC)cc3ccnc4c3c2N(C)C=C4)cc1	-	-	-	>15 µg/mL
CN(c1cc2ccccc2[n+](C)c1)c1ccccc1Cl.[I-]	-	resazurin	ATCC 90906	>20 µg/mL
C[C@@H]1CCC2(OC1)OC1CC3C4C[C@H](OC5O[C@@H](CO)[C@H](O)[C@@H](O)[C@@H]5O)[C@H]5C[C@@H](OC6O[C@H](CO)[C@@H](O)[C@H](O)[C@H]6O)CC[C@]5(C)C4CC[C@]3(C)C1[C@@H]2C	-	-	ATCC 90906	>20 µg/mL
O=Cc1cc(-c2ccc(Cl)cc2Cl)on1	-	-	Clinical isolates	38.82 µg/mL
O/N=C/c1ccc[n+](Cc2cc(C[n+]3cccc(/C=N/O)c3)on2)c1.[Br-].[Br-]	-	broth dilution	-	>20 µg/mL
CC(=O)O[C@H]1C[C@@]2(C)[C@@H](C[C@@H](O)[C@H]3[C@@]4(C)CC[C@@H](O)[C@@H](C)[C@@H]4CC[C@@]32C)/C1=C(\CCC=C(C)C)C(=O)O	-	agar diffusion / agar	-	>100 µg/mL
O=Cc1cc(-c2c(Cl)cccc2Cl)no1	-	-	Clinical isolates	>50 µg/mL
O/N=C/c1ccc[n+](Cc2ccc(C[n+]3cccc(/C=N/O)c3)s2)c1.[Cl-].[Cl-]	-	broth dilution	-	>20 µg/mL
COc1cc2ccnc3c2c(c1OC(=O)c1ccc(F)c(F)c1)N(C)C=C3	-	-	-	>15 µg/mL
Cc1onc(-c2ccc(OCc3ccccc3)cc2)c1C=O	-	-	Clinical isolates	>50 µg/mL
C[C@@H]1[C@H](O)[C@@H](C)/C=C/C=C/C=C/C=C/C=C/C=C/C=C/[C@H](O[C@@H]2O[C@H](C)[C@@H](O)[C@H](N)[C@@H]2O)C[C@@H]2O[C@](O)(C[C@@H](O)C[C@@H](O)[C@H](O)CC[C@@H](O)C[C@@H](O)CC(=O)O[C@H]1C)C[C@H](O)[C@H]2C(=O)O	-	broth dilution	AF-294	0.5 µg/mL

For reference, 2 entries again:

compound	setting	read by	strain	result
C[C@@H]1[C@H](O)[C@@H](C)/C=C/C=C/C=C/C=C/C=C/C=C/C=C/[C@H](O[C@@H]2O[C@H](C)[C@@H](O)[C@H](N)[C@@H]2O)C[C@@H]2O[C@](O)(C[C@@H](O)C[C@@H](O)[C@H](O)CC[C@@H](O)C[C@@H](O)CC(=O)O[C@H]1C)C[C@H](O)[C@H]2C(=O)O	-	broth dilution	AF-294	0.5 µg/mL
O=Cc1cc(-c2ccc(Cl)cc2Cl)on1	-	-	Clinical isolates	38.82 µg/mL